Reference: article PMC6198970, “Safety, efficacy, and dose response of the maturation inhibitor GSK3532795 (formerly known as BMS-955176) plus tenofovir/emtricitabine once daily in treatment-naive HIV-1-infected adults: Week 24 primary analysis from a randomized Phase IIb trial” (PLoS ONE, 2018)

Test system: HIV-1
Assay: Protocol-defined virologic failure and drug resistance testing (GenoSure MG, PhenoSense)
Format: in vivo, HIV-1-infected adults
Excerpt: PDVF was defined as either: (1) confirmed HIV-1 RNA ≥40 copies/mL at any time after prior confirmed suppression to <40 copies/mL; or (2) a confirmed >1 log10 copies/mL above the nadir level. Genotypic information required for screening was generated using the GenoSure® MG assay; genotypic information and phenotypic observations during the treatment period were generated using the PhenoSense® combination resistance test.

SMILES	Emergent NRTI, NNRTI or PI mutations (EFV arm, only participant with on-treatment resistance testing)	Treatment-emergent RT/NRTI substitutions (60 mg, N = 5 tested, 5 sequenced)	Treatment-emergent RT/NRTI substitutions (120 mg, N = 6 tested, 5 sequenced)	Treatment-emergent RT/NRTI substitutions (180 mg, N = 4 tested, 2 sequenced)	Participants with emergent substitutions at reverse transcriptase positions M184 (GSK3532795 arms pooled, of those meeting resistance testing criteria)
O=C1Nc2ccc(Cl)cc2[C@@](C#CC2CC2)(C(F)(F)F)O1 [EFV, efavirenz, reference compound]	did not have any nucleoside reverse transcriptase inhibitor (NRTI)/non-NRTI mutations; also recorded: no emergent NRTI, NNRTI, or PI mutations; also recorded: no treatment-emergent resistance	–	–	–	–
C=C(C)[C@@H]1CC[C@]2(NCCN3CCS(=O)(=O)CC3)CC[C@]3(C)[C@H](CC[C@@H]4[C@@]5(C)CC=C(c6ccc(C(=O)O)cc6)C(C)(C)[C@@H]5CC[C@]43C)[C@@H]12 [GSK3532795]	–	3/5	5/5	2/2	10/15

“Also recorded” adds a separate entry of the source.
